Reference: patent publication US20250171495A1, “MUTLI-TARGETED SERINE PROTEASE INHIBITORS FOR TREATMENT OF CANCER AND VIRAL INFECTION” (Washington University, priority 2023, published 2025)

System: VSV-MERS
Assay: Host cell entry assay, VSV-MERS chimera, Calu-3 cells
Details: read-out: VSV MERS Cell Entry EC50; human lung epithelial Calu-3 cells

SMILES	EC50 [nM]
CCC(C)[C@H](NC(C)=O)C(=O)N[C@@H](CCC(N)=O)C(=O)N[C@@H](Cc1ccccc1)C(=O)N[C@@H](CCCNC(=N)N)C(=O)c1nc2ccccc2s1 (stereo partly drawn) [MM3116, N-[(S)-1-[N-(S)-1-[(1,3-benzothiazol-2-yl)carbonyl]-4-guanidinobutylcarbamoyl]-2-phenylethyl](S)-2-[(2S)-2-acetylamino-3-methylvalerylamino]glutaramide]	2.3
CC(=O)NCC(=O)N[C@@H](CCC(N)=O)C(=O)N[C@@H](Cc1ccccc1)C(=O)N[C@@H](CCCNC(=N)N)C(=O)c1nc2ccccc2s1 [MM3122, N-[(S)-1-[N-(S)-1-[(1,3-benzothiazol-2-yl)carbonyl]-4-guanidinobutylcarbamoyl]-2-phenylethyl](S)-2-[(acetylaminomethyl)carbonylamino]glutaramide]	0.87
CC(=O)N1CCC[C@H]1C(=O)N[C@@H](CCC(N)=O)C(=O)N[C@@H](Cc1ccccc1)C(=O)N[C@@H](CCCNC(=N)N)C(=O)c1nc2ccccc2s1 [MM3123, N-[(S)-1-[N-(S)-1-[(1,3-benzothiazol-2-yl)carbonyl]-4-guanidinobutylcarbamoyl]-2-phenylethyl](S)-2-[(S)-1-acetyl-2-pyrrolidinylcarbonylamino] glutaramide]	2.9
CC(=O)N[C@@H](CCC(N)=O)C(=O)N[C@@H](Cc1ccccc1)C(=O)N[C@@H](CCCNC(=N)N)C(=O)c1nc2ccccc2s1 [MM3144, N-[(S)-1-[N-(S)-1-[(1,3-benzothiazol-2-yl)carbonyl]-4-guanidinobutylcarbamoyl]-2-phenylethyl](S)-2-acetylaminoglutaramide]	0.55
CC(=O)N[C@H]1CC(=O)NCCCC[C@@H](C(=O)N[C@@H](CCCNC(=N)N)C(=O)c2nc3ccccc3s2)NC(=O)[C@H](CC(C)C)NC1=O [VD2173, Ac-Cyclo(DLK)—R-ketobenzothiazole]	273
